A mixed list of measured activities; the numbers were collected in NIAID ChemDB.

Shared fields: whole-cell or culture tests

A number after MIC or MFC names an inhibition level or a share of isolates.

CC[C@H]1OC(=O)[C@H](C)[C@@H](O[C@H]2C[C@@](C)(OC)[C@@H](OC(C)=O)[C@H](C)O2)[C@H](C)[C@@H](O[C@@H]2O[C@H](C)C[C@H](N(C)C)[C@H]2OC(=O)NNCCc2ccccc2)C(C)(O)C[C@@H](C)/C(=N\OCCCC2CCCCC2)[C@H](C)[C@@H](O)[C@]1(C)O ; measure: MIC ; organism: Mycobacterium avium complex ; strain: 20039 (clarithromycin-susceptible) ; result: 1.56 µg/mL
CO[C@@]1(NC(=O)CCCC(N)C(=O)O)C(=O)N2C(C(=O)O)=C(COC(C)=O)CSC21 ; measure: MIC ; organism: Mycobacterium fortuitum ; strain: 1047 ; result: >100 µg/mL
CC1(C)N=C(N)N=C(N)N1OCCCOc1cc(Cl)c(Cl)cc1Cl ; measure: MIC ; organism: Mycobacterium avium complex ; strain: 101 ; result: 1 µg/mL
Cc1ccn2c(C(=O)NCc3ccc(N(C)C)cc3)c(C)nc2c1 ; measure: MIC50 ; organism: Mycobacterium ulcerans ; method: fluorescence ; result: 0.1–1 µg/mL
CCCO/N=C1\[C@H](C)CC(C)(O)[C@H](O[C@@H]2O[C@H](C)C[C@H](N(C)C)[C@H]2O)[C@@H](C)[C@H](O[C@H]2C[C@@](C)(OC)[C@@H](OC(C)=O)[C@H](C)O2)[C@@H](C)C(=O)O[C@H](CC)[C@@](C)(O)[C@H](O)[C@H]1C ; measure: MIC ; organism: Mycobacterium avium complex ; strain: 20039 (clarithromycin-susceptible) ; result: >50 µg/mL
CO[C@@]1(NC(=O)Cc2ccccc2)C(=O)N2C(C(=O)[O-])=C(CSc3nnc(C)s3)CSC21 ; measure: MIC ; organism: Mycobacterium fortuitum ; strain: 4-May ; result: 25 µg/mL
CO[C@H]1/C=C/O[C@@]2(C)Oc3c(C)c(O)c4c(O)c(c5c(c4c3C2=O)NC2(CCN(CC(C)C)CC2)N=5)=NC(=O)/C(C)=C\C=C\[C@H](C)[C@H](O)[C@@H](C)[C@@H](O)[C@@H](C)[C@H](OC(C)=O)[C@@H]1C ; measure: MIC ; organism: Mycobacterium avium intracellulare ; strain: 953 ; result: 1 µg/mL
O=C(NCCO)c1c(Cl)nc2ccccn12 ; measure: MIC50 ; organism: Mycobacterium ulcerans ; method: fluorescence ; result: >10 µg/mL
CCCC(=O)O[C@H]1[C@H](C)OC(O[C@H]2[C@H](C)[C@@H](O[C@@H]3O[C@H](C)C[C@H](N(C)C)[C@H]3O)C(C)(O)C[C@@H](C)/C(=N\OCCCOc3ccccc3)[C@H](C)[C@@H](O)[C@](C)(O)[C@@H](CC)OC(=O)[C@@H]2C)C[C@@]1(C)OC ; measure: MIC ; organism: Mycobacterium avium complex ; strain: 20092 (clarithromycin-resistant) ; result: 0.78 µg/mL
CN(CCCNC(=O)c1c(Cl)nc2ccccn12)c1ccccc1F ; measure: MIC50 ; organism: Mycobacterium ulcerans ; method: fluorescence ; result: 1–10 µg/mL
CO[C@@]1(NC(=O)C(C(=O)O)c2ccc(O)cc2)C(=O)N2C(C(=O)O)=C(CSc3nnnn3C)CO[C@@H]21 ; measure: MIC ; organism: Mycobacterium fortuitum ; strain: 914-8 ; result: 12.5 µg/mL
Cc1nc2ccccn2c1C(=O)NCCN1CCOCC1 ; measure: MIC50 ; organism: Mycobacterium ulcerans ; method: fluorescence ; result: >10 µg/mL
CO[C@@]1(NC(=O)Cc2cccs2)C(=O)N2C(C(=O)O)=C(COC(N)=O)CS[C@@H]21 ; measure: MIC ; organism: Mycobacterium fortuitum ; strain: 1049 ; result: 12.5 µg/mL
CCCO/N=C1\[C@H](C)CC(C)(O)[C@H](O[C@@H]2O[C@H](C)C[C@H](N(C)C)[C@H]2O)[C@@H](C)[C@H](OC2C[C@@](C)(OC)[C@@H](O)[C@H](C)O2)[C@@H](C)C(=O)O[C@H](CC)[C@@](C)(O)[C@H](O)[C@H]1C ; measure: MIC ; organism: Mycobacterium avium complex ; strain: 20092 (clarithromycin-resistant) ; result: >50 µg/mL
CO[C@@]1(NC(=O)Cc2ccccc2)C(=O)N2C(C(=O)O)=C(COC(C)=O)CSC21 ; measure: MIC ; organism: Mycobacterium fortuitum ; strain: 1030-8 ; result: 25 µg/mL
CC[C@H]1OC(=O)[C@H](C)[C@@H](OC(C)=O)[C@H](C)[C@@H](O[C@@H]2O[C@H](C)C[C@H](N(C)C)[C@H]2O)C(C)(O)C[C@@H](C)/C(=N\OCCCOc2ccccc2)[C@H](C)[C@@H](O)[C@]1(C)O ; measure: MIC ; organism: Mycobacterium avium intracellulare ; strain: 20066 (clarithromycin-susceptible) ; result: 50 µg/mL
CC(C)N=C(N)/N=C(\N)NOCCCOc1cc(Cl)c(Cl)cc1Cl ; measure: MIC ; organism: Mycobacterium avium complex ; strain: 1439 ; result: 32 µg/mL
COc1ccc(C(=O)OCCNC(=O)c2c(Cl)nc3ccccn23)cc1 ; measure: MIC50 ; organism: Mycobacterium ulcerans ; method: fluorescence ; result: >10 µg/mL
CCCCCCO/N=C1\[C@H](C)CC(C)(O)[C@H](O[C@@H]2O[C@H](C)C[C@H](N(C)C)[C@H]2O)[C@@H](C)[C@H](O[C@H]2C[C@@](C)(OC)[C@@H](OC(C)=O)[C@H](C)O2)[C@@H](C)C(=O)O[C@H](CC)[C@@](C)(O)[C@H](O)[C@H]1C ; measure: MIC ; organism: Mycobacterium avium complex ; strain: 20092 (clarithromycin-resistant) ; result: 3.13 µg/mL

For reference, 2 entries again:

compound | measure | organism | method | strain | result
CO[C@@]1(NC(=O)C(C(=O)O)c2ccc(O)cc2)C(=O)N2C(C(=O)O)=C(CSc3nnnn3C)CO[C@@H]21 | MIC | Mycobacterium fortuitum |  | 914-8 | 12.5 µg/mL
CC[C@H]1OC(=O)[C@H](C)[C@@H](OC(C)=O)[C@H](C)[C@@H](O[C@@H]2O[C@H](C)C[C@H](N(C)C)[C@H]2O)C(C)(O)C[C@@H](C)/C(=N\OCCCOc2ccccc2)[C@H](C)[C@@H](O)[C@]1(C)O | MIC | Mycobacterium avium intracellulare |  | 20066 (clarithromycin-susceptible) | 50 µg/mL

An empty or dashed field is not shown. a–b is a range or a potency band. Lines come from different laboratories, so protocols vary.